## Positions that govern dimerization of the HIV-1 5' RNA

From the data files of Ye et al. 2022, doi:10.1038/s41594-022-00746-2.

The 5' region of HIV-1 NL4-3 RNA (positions 1-437):
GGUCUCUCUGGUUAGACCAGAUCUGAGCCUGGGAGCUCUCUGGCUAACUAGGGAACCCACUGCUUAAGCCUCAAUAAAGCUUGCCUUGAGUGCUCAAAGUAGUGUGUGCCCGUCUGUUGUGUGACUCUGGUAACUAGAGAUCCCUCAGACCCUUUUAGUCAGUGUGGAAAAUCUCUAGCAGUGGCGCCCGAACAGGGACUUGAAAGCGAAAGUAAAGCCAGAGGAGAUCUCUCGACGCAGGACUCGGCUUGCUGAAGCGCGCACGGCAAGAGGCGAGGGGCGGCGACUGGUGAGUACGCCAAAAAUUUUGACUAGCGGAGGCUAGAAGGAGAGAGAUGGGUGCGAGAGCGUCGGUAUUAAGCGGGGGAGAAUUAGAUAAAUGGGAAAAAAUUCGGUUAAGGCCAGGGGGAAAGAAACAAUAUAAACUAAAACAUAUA

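Randomly mutated transcripts starting with one, two or three G (1G, 2G, 3G), capped or uncapped, were folded for 30 min at 37 °C. Monomer and dimer bands were cut from native gels after folding in high salt (300 mM KCl, 5 mM MgCl2) or low salt (40 mM KCl, 0.1 mM MgCl2). Kdimer compares mutation frequencies in monomer and dimer, corrected for sequencing errors.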

Scale: median log2 Kdimer over the changes at a position; positive = changes inhibit dimerization, negative = changes enhance it.
Sample: 2G capped low-salt.
One numbering serves 1G, 2G and 3G.
A position is written with its base.

G406 read -0.20. With G407 the assay gave -0.06. For G408 the result was 0.01. G409 read -0.05. A410 read -0.05. A411 gave 0.07. A412 read -0.01. G413 read -0.09.

A414 gave -0.08. A415 read -0.05. A416 read 0.09. C417 read 0.09. For A418 the result was 0.04. For A419 the result was -0.03. U420 gave 0.05. A421 gave -0.04.

U422 read -0.06. For A423 the result was -0.02.

A selection of 2 entries from above:

* G413 -> -0.09
* G408 -> 0.01